Compound potency records, mixed from different reports. Data source: NIAID ChemDB in PubChem.

All rows: whole-cell or culture tests; organism: Mycobacterium smegmatis

Zones are inhibition diameters on agar.

smiles | strain | read by | read-out | tested at | result
N#CC(C#N)=NNc1cccc(Cl)c1 | MC^2 552 (ciprofloxacin-resistant) | - | MIC | - | 30 µg/mL
Cc1nn(-c2ccccc2)c2c1C(c1cn(-c3ccccc3)nc1-c1ccc(F)cc1)C1=C(NC(C)(c3cc(O)cc(O)c3)NC1=O)O2 | NCIM 5138 | agar diffusion / agar | zone | 1 mg/mL | 6.5 mm
CCNC1CCN(c2c(F)cn3c(=O)c(C(=O)O)cc(C4CC4)c3c2C)C1.Cl | ATCC114 | - | MIC | - | 0.02 µg/mL
CC1CN(c2c(F)cc3c(=O)c(C(=O)O)cn(C4CC4)c3c2F)CC(C)N1 | KD2008 (GYRA G89C) | - | MIC99 | - | 1.2 µg/mL
C[C@H]1c2cccc(O)c2C(O)=C2C(=O)[C@]3(O)C(O)=C(C(N)=O)C(=O)[C@@H](N(C)C)[C@@H]3[C@@H](O)[C@@H]21 | A29663 | - | MIC | - | 0.13 µg/mL
CN(C)[C@@H]1C(=O)C(C(N)=O)=C(O)[C@@]2(O)C(=O)C3=C(O)c4c(O)cccc4[C@@](C)(O)[C@H]3C[C@@H]12 | mc2155 | - | MIC | - | 2 µg/mL
Cc1nn(-c2ccccc2)c2c1C(c1cn(-c3ccccc3)nc1-c1ccc(Cl)cc1)C1=C(NC(C)(c3cc(O)c(Cl)c(O)c3)NC1=O)O2 | NCIM 5138 | agar diffusion / agar | zone | 1 mg/mL | 6.8 mm
CC(C)N1CCN(c2cc3c(cc2F)c(=O)c(C(=O)O)cn3C2CC2)CC1 | KD1991 (GYRA D95Y) | - | MIC99 | - | 4.6 µg/mL
Cc1c(N2CCC(c3ccccn3)C2)c(F)cn2c(=O)c(C(=O)O)cc(C3CC3)c12.Cl | ATCC114 | - | MIC | - | 0.78 µg/mL
CC1CN(c2c(F)cc3c(=O)c(C(=O)O)cn(C4CC4)c3c2F)CCN1 | KD1998 (GYRA D95N) | - | MIC99 | - | 1.3 µg/mL
Cc1c(N2CCC(n3ccnn3)C2)c(F)cn2c(=O)c(C(=O)O)cc(C3CC3)c12 | ATCC114 | - | MIC | - | 0.39 µg/mL
COc1c(N2CCN(C(C)C)CC2)c(F)cc2c(=O)c(C(=O)O)cn(C3CC3)c12 | KD1987 (GYRA A91V) | - | MIC99 | - | 1.4 µg/mL
Cc1nn(-c2ccccc2)c2c1C(c1cn(-c3ccccc3)nc1-c1ccc(F)cc1)C1=C(NC(C)(c3cc(O)ccc3Cl)NC1=O)O2 | NCIM 5138 | agar diffusion / agar | zone | 0.1 mg/mL | 1.9 mm
CC1CN(c2c(F)cc3c(=O)c(C(=O)O)cn(C4CC4)c3c2Cl)CC(C)N1 | KD1163 (GRYA+) | - | MIC99 | - | 0.058 µg/mL
Cc1c(N2CCC(N(C)C)CC2)c(F)cn2c(=O)c(C(=O)O)cc(C3CC3)c12 | ATCC114 | - | MIC | - | 0.2 µg/mL
CCN1CCN(c2c(F)cc3c(=O)c(C(=O)O)cn(C4CC4)c3c2F)CC1 | KD1991 (GYRA D95Y) | - | MIC99 | - | 2.3 µg/mL
Cc1c(N2CCc3c(N)cccc3C2)c(F)cn2c(=O)c(C(=O)O)cc(C3CC3)c12.Cl | ATCC114 | - | MIC | - | 25 µg/mL
Cc1nn(-c2ccccc2)c2c1C(c1cn(-c3ccccc3)nc1-c1ccc(Cl)cc1)C1=C(NC(C)(c3cc(O)ccc3Cl)NC1=O)O2 | NCIM 5138 | agar diffusion / agar | zone | 0.5 mg/mL | 2.3 mm

2 of the rows above, restated:

{"smiles": "CC1CN(c2c(F)cc3c(=O)c(C(=O)O)cn(C4CC4)c3c2F)CC(C)N1", "strain": "KD2008 (GYRA G89C)", "read-out": "MIC99", "result": "1.2 µg/mL"}
{"smiles": "Cc1c(N2CCc3c(N)cccc3C2)c(F)cn2c(=O)c(C(=O)O)cc(C3CC3)c12.Cl", "strain": "ATCC114", "read-out": "MIC", "result": "25 µg/mL"}

Neighbouring rows are from separate reports. An empty or dashed field is not shown. MIC50, MIC90 and the like: level of inhibition, or share of isolates inhibited.